Results of unrelated studies side by side (data: NIAID ChemDB).

All rows: tests in culture

Two numbers with a dash give a range or band. Fold resistance: result on the changed form divided by that on wild type. Blank or dashed fields: not listed here. Zone: diameter of growth inhibition. ECn: concentration that inhibits the pathogen or its effect by n%. Inhibition is in % at the dose shown (toxicity tests: loss of growth or viability). Neighbouring rows are from separate reports. A number after MIC or MFC names an inhibition level or a share of isolates.

structure	organism	strain	mutations	cells	read by	read-out	tested at	result
C#CC[C@@H](C(=O)N[C@H](/C=C/C(=O)OCC)C[C@@H]1CCNC1=O)n1cccc(NC(=O)c2cc(C)on2)c1=O	Rhinovirus	Serotype 13	-	H1-HELA	cytopathic effect / XTT	EC50	-	0.055 µM
N[C@@H]1CN(c2c(F)cc3c(=O)c(C(=O)O)cn([C@@H]4C[C@@H]4F)c3c2Cl)CC12CC2	Staphylococcus aureus	24 strains (ofloxacin-susceptible)	-	-	-	MIC90	-	0.06 µg/mL
CCN(CC)CCCC(C)Nc1ccnc2cc(Cl)ccc12	Encephalitozoon cuniculi	-	-	MRC-5 fibroblasts	cytopathic effect	EC50	-	>25 µg/mL
CC(=O)NC[C@H]1CN(c2ccc(N3CCN(C(=O)CO)CC3)c(F)c2)C(=O)O1	Streptococcus pneumoniae	Penicillin-resistant	-	-	-	MIC90	-	0.25–0.5 µg/mL
CCOC(=O)Nc1cc2c(nc(-c3ccccc3)c3nnnn32)c(NC(c2ccccc2)c2ccccc2)n1	Encephalitozoon intestinalis	-	-	RK-13	-	inhibition	1 µg/mL	64.6%
Nc1ccn(C[C@@H](CO)OCP(=O)(O)O)c(=O)n1	Mouse cytomegalovirus	WILD TYPE	-	C1271	plaque count	EC50	-	0.2 µM
CN(C)c1ccc(O)c2c1C[C@H]1C[C@H]3[C@H](N(C)C)C(=O)C(C(N)=O)=C(O)[C@@]3(O)C(=O)C1=C2O	Mycobacterium chelonae	-	-	-	broth dilution	MIC90	-	128 µg/mL
CC[C@]1(O)C[C@H]2CN(CCc3c([nH]c4ccccc34)[C@@](C(=O)OC)(c3cc4c(cc3OC)N(C)[C@H]3[C@@](O)(C(=O)OC)[C@H](OC(C)=O)[C@]5(CC)C=CCN6CC[C@]43[C@@H]65)C2)C1	Encephalitozoon intestinalis	-	-	RK-13	-	inhibition	0.01 µg/mL	54.3%
Nc1nc2c(ncn2COCCOCP(=O)(O)O)c(=O)[nH]1	Mouse cytomegalovirus	HPMPC-resistant	-	C1271	plaque count	EC50	-	3.1 µM
Nc1nc2c(ncn2COCOCP(=O)(O)O)c(=O)[nH]1	Parainfluenza virus	C243 (TYPE 3)	-	-	virus yield	EC90	-	>100 µg/mL
CO[C@H]1/C=C/O[C@@]2(C)Oc3c(C)c(O)c4c(O)c(c(/C=N/N5CCN(C)CC5)c(O)c4c3C2=O)NC(=O)/C(C)=C\C=C\[C@H](C)[C@H](O)[C@@H](C)[C@@H](O)[C@@H](C)[C@H](OC(C)=O)[C@@H]1C	Staphylococcus aureus	20 strains (methicillin-susceptible)	-	-	-	MIC90	-	0.0078 µg/mL
Nc1ncnc2c1ncn2C[C@H](O)CO	Epstein-Barr virus	-	-	P3HR-1	-	inhibition	10 µM	6%
Nc1ccnc2c1ncn2[C@H]1C=C[C@@H](OCP(=O)(O)O)O1	Adenovirus	13306 (TYPE 8)	-	-	virus yield	EC90	-	0.1 µg/mL
NC[C@@H]1O[C@H](O[C@H]2[C@@H](O)[C@H](O[C@@H]3[C@@H](O)[C@H](N)C[C@H](N)[C@H]3O[C@H]3O[C@H](CO)[C@@H](O)[C@H](O)[C@H]3N)O[C@@H]2CO)[C@H](N)[C@@H](O)[C@@H]1O	Encephalitozoon cuniculi	-	-	MRC-5 fibroblasts	cytopathic effect	inhibition	500 µg/mL	0%
CC(C)=CCN1Cc2cc(Cl)cc3[nH]c(=S)n(c23)C[C@@H]1C	HIV-1	-	RT-M41L T215Y K103N	MT-4	-	EC95	-	>3 µM
NC(=O)c1ncn([C@@H]2O[C@H](CO)[C@@H](O)[C@H]2O)n1	Respiratory syncytial virus	Y751	-	HEP-2	plaque count	EC50	-	10.5 µM
C[C@H](Cc1ccc(O)c(O)c1)[C@@H](C)Cc1ccc(O)c(O)c1	Candida albicans	CCC 125-2000	-	-	broth dilution	MIC50	-	250 µg/mL
CCCSc1ccc2nc(NC(=O)OC)[nH]c2c1	Encephalitozoon cuniculi	-	-	MRC-5 fibroblasts	cytopathic effect	inhibition	1 µg/mL	100%
NC1CCN(c2nc3c(cc2F)c(=O)c(C(=O)O)cn3-c2ccc(F)cc2F)C1	Staphylococcus aureus	25 strains (methicillin-susceptible)	-	-	-	MIC50	-	0.06 µg/mL
C[C@H](COc1cc(N)nc(N)n1)OCP(=O)(O)O	Semliki Forest virus	-	-	-	cytopathic effect	EC50	-	>180 µM
CCC(C)n1ncn(-c2ccc(N3CCN(c4ccc(OC[C@H]5CO[C@](Cn6cncn6)(c6ccc(Cl)cc6Cl)O5)cc4)CC3)cc2)c1=O	Encephalitozoon cuniculi	-	-	MRC-5 fibroblasts	cytopathic effect	inhibition	0.2 µg/mL	9%
COc1c(N2CCNC(C)C2)c(F)cc2c(=O)c(C(=O)O)cn(C3CC3)c12	Staphylococcus aureus	25 strains (ofloxacin-resistant)	-	-	-	MIC50	-	8 µg/mL
CCOC(=O)Nc1cc(NC(C)/C(=N/O)c2ccccc2)c([N+](=O)[O-])c(N)n1	Encephalitozoon intestinalis	-	-	RK-13	-	inhibition	0.01 µg/mL	0%
NC(=O)c1ncn([C@@H]2O[C@H](CO)[C@@H](O)[C@H]2O)n1	Measles virus	X-1108	-	CV-1	cytopathic effect	EC50	-	20 µg/mL
CCO/N=C/c1ccc(OCCC2CCN(c3ccc(C)nn3)CC2)cc1	Rhinovirus	Baylor 1 (ICAM-1 receptor group 45)	-	KB	neutral red	EC50	-	0.174 µM
Nc1cc(OC[C@H](CO)OCP(=O)(O)O)nc(N)n1	Semliki Forest virus	-	-	-	cytopathic effect	EC50	-	>15 µM
C[C@@H]1CN(c2c(F)c(N)c3c(=O)c(C(=O)O)cn(C4CC4)c3c2F)C[C@H](C)N1	Encephalitozoon cuniculi	-	-	MRC-5 fibroblasts	cytopathic effect	inhibition	5 µg/mL	0%
CN[C@@H]1[C@H](O[C@H]2[C@H](O[C@H]3[C@H](O)[C@@H](O)[C@H](N=C(N)N)[C@@H](O)[C@@H]3N=C(N)N)O[C@@H](C)[C@]2(O)C=O)O[C@@H](CO)[C@H](O)[C@H]1O	Klebsiella pneumoniae	-	-	-	agar diffusion	zone	250 µg/disc	20 mm
CCCSc1ccc2nc(NC(=O)OC)[nH]c2c1	Encephalitozoon intestinalis	-	-	RK-13	-	inhibition	0.001 µg/mL	2%
CO[C@H]1/C=C/O[C@@]2(C)Oc3c(C)c(O)c4c(O)c(c5c(c4c3C2=O)NC2(CCN(CC(C)C)CC2)N=5)=NC(=O)/C(C)=C\C=C\[C@H](C)[C@H](O)[C@@H](C)[C@@H](O)[C@@H](C)[C@H](OC(C)=O)[C@@H]1C	Staphylococcus aureus	20 strains (methicillin-susceptible)	-	-	-	MIC50	-	0.016 µg/mL
C[C@H]1COc2c(N3CCN(C)CC3)c(F)cc3c(=O)c(C(=O)O)cn1c23	Staphylococcus aureus	25 strains (ofloxacin-resistant)	-	-	-	MIC50	-	16 µg/mL
NC(=O)c1ncn([C@@H]2O[C@H](CO)[C@@H](O)[C@H]2O)c1O	Mumps virus	ECXH-3	-	VERO	plaque count	EC50	-	30.2 µg/mL
CCCCCCCCCC(=O)N[C@H]1[C@H](Oc2c3cc4cc2Oc2ccc(cc2Cl)[C@@H](O[C@@H]2O[C@H](CO)[C@@H](O)[C@H](O)[C@H]2NC(C)=O)[C@@H]2NC(=O)[C@H](NC(=O)[C@@H]4NC(=O)[C@H]4NC(=O)[C@@H](Cc5ccc(c(Cl)c5)O3)NC(=O)[C@H](N)c3ccc(O)c(c3)Oc3cc(O)cc4c3)c3ccc(O)c(c3)-c3c(O[C@H]4O[C@H](CO)[C@@H](O)[C@H](O)[C@@H]4O)cc(O)cc3[C@H](C(=O)O)NC2=O)O[C@H](CO)[C@@H](O)[C@@H]1O	Staphylococcus aureus	25 strains (ofloxacin-resistant)	-	-	-	MIC90	-	4 µg/mL
COc1ccc(OC)c(NCc2cnc3nc(N)nc(N)c3c2C)c1	Encephalitozoon intestinalis	-	-	RK-13	-	inhibition	0.01 µg/mL	4.8%
Cc1onc(-c2ccccc2)c1C(=O)N[C@@H]1C(=O)N2[C@@H]1SC(C)(C)[C@@H]2C(=O)O	Staphylococcus aureus	24 strains (ofloxacin-susceptible)	-	-	-	MIC50	-	64 µg/mL
Nc1ccc(S(=O)(=O)Nc2ncccn2)cc1	Encephalitozoon cuniculi	-	-	MRC-5 fibroblasts	cytopathic effect	inhibition	2 µg/mL	0%
Nc1nc2c(ncn2COC(COCP(=O)(O)O)COCP(=O)(O)O)c(=O)[nH]1	Mouse cytomegalovirus	WILD TYPE	-	C1271	plaque count	EC50	-	0.6 µM
O=c1[nH]cnc2c1ncn2[C@H]1CC[C@@H](CO)O1	HIV-1	HXB2	RT-Y181C	HT4 + HT4 LacZ-1	plaque count	fold resistance	-	0.929
Nc1nc2c(ncn2COC(CO)CO)c(=O)[nH]1	Mouse cytomegalovirus	WILD TYPE	-	C1271	plaque count	EC50	-	6 µM
C[C@H]1[C@H](O)[C@@H](C)/C=C/C=C/C=C/C=C/C=C/C=C/C=C/[C@H](O[C@@H]2O[C@H](C)[C@@H](O)[C@H](N)[C@@H]2O)C[C@@H]2O[C@](O)(C[C@@H](O)C[C@@H](O)CC[C@H](O)[C@@H](O)C[C@@H](O)CC(=O)O[C@H]1C)C[C@H](O)[C@H]2C(=O)O	Aspergillus fumigatus	60 isolates	-	-	-	MIC90	-	0.5 µg/mL
Nc1ncnc2c1ncn2CCOCP(=O)(O)O	Reovirus	TYPE 1	-	-	cytopathic effect	EC50	-	>185 µM
C[C@@H]1CN(c2c(F)c(N)c3c(=O)c(C(=O)O)cn(C4CC4)c3c2F)C[C@H](C)N1	Streptococcus pneumoniae	Clinical isolate RT1	-	-	-	MIC	-	4 µg/mL
Cc1c(N2C[C@@H](F)[C@@H](C3(N)CC3)C2)c(F)c(N)c2c(=O)c(C(=O)O)cn([C@@H]3C[C@@H]3F)c12	Staphylococcus aureus	24 strains (ofloxacin-susceptible)	-	-	-	MIC90	-	0.008 µg/mL
CC(=O)Oc1ccccc1C(=O)Nc1ncc([N+](=O)[O-])s1	Encephalitozoon intestinalis	-	-	RK-13	-	inhibition	1 µg/mL	57.5%
C[C@H]1NCc2cc(-c3ccc4c(=O)c(C(=O)O)cn(C5CC5)c4c3OC(F)F)ccc21	Haemophilus influenzae	38 strains (ampicillin-susceptible)	-	-	-	MIC50	-	≤0.004 µg/mL
Nc1ncnc2c1ncn2CCOCP(=O)(O)O	Epstein-Barr virus	-	-	P3HR-1	-	inhibition	1 µM	4%
CN(C)c1cc(NC(=O)CNC(C)(C)C)c(O)c2c1C[C@H]1C[C@H]3[C@H](N(C)C)C(=O)C(C(N)=O)=C(O)[C@@]3(O)C(=O)C1=C2O	Mycobacterium massiliense	-	-	-	broth dilution	MIC	-	0.125–4 µg/mL
Nc1ncnc2c1ncn2C[C@H](CO)OCP(=O)(O)O	Adenovirus	TAK (TYPE 41)	-	-	cytopathic effect	EC50	-	0.2 µg/mL
CC1COc2c(N3CCN(C)CC3)c(F)cc3c(=O)c(C(=O)O)cn1c23	Staphylococcus aureus	20 strains (oxacillin-susceptible)	-	-	-	MIC90	-	0.25 µg/mL
O=c1[nH]cc(F)c(=O)[nH]1	Encephalitozoon cuniculi	-	-	MRC-5 fibroblasts	cytopathic effect	inhibition	30 µg/mL	100%
CN(C)[C@@H]1C(=O)C(C(N)=O)=C(O)[C@@]2(O)C(=O)C3=C(O)c4c(O)c(NC(=O)CN5CCOCC5)cc(F)c4C[C@H]3C[C@@H]12	Streptococcus pneumoniae	106-49619	-	-	agar diffusion	MIC	-	0.5 µg/mL
CCOC(=O)Nc1cc2c(c(N)n1)N=C(c1ccc3ccccc3c1)CS2	Encephalitozoon intestinalis	-	-	RK-13	-	inhibition	1 µg/mL	74.1%

For reference, 4 entries again:

structure,organism,strain,mutations,cells,read by,read-out,tested at,result
CN(C)[C@@H]1C(=O)C(C(N)=O)=C(O)[C@@]2(O)C(=O)C3=C(O)c4c(O)c(NC(=O)CN5CCOCC5)cc(F)c4C[C@H]3C[C@@H]12,Streptococcus pneumoniae,106-49619,-,-,agar diffusion,MIC,-,0.5 µg/mL
CCO/N=C/c1ccc(OCCC2CCN(c3ccc(C)nn3)CC2)cc1,Rhinovirus,Baylor 1 (ICAM-1 receptor group 45),-,KB,neutral red,EC50,-,0.174 µM
CN(C)c1cc(NC(=O)CNC(C)(C)C)c(O)c2c1C[C@H]1C[C@H]3[C@H](N(C)C)C(=O)C(C(N)=O)=C(O)[C@@]3(O)C(=O)C1=C2O,Mycobacterium massiliense,-,-,-,broth dilution,MIC,-,0.125–4 µg/mL
C#CC[C@@H](C(=O)N[C@H](/C=C/C(=O)OCC)C[C@@H]1CCNC1=O)n1cccc(NC(=O)c2cc(C)on2)c1=O,Rhinovirus,Serotype 13,-,H1-HELA,cytopathic effect / XTT,EC50,-,0.055 µM